The values below come from ChEMBL document CHEMBL1148773 (J Med Chem, 2007).

The term Ki denotes the equilibrium dissociation constant of an inhibitor or competing ligand from its target.

This experiment concerns the target Protease (Human immunodeficiency virus 1, UniProt Q9YQ12). As to the kind of experiment: Inhibition of wild type HIV1 protease.

`CC(C)CN(C[C@@H](O)[C@H](Cc1ccccc1)NC(=O)O[C@H]1CO[C@H]2OCC[C@H]21)S(=O)(=O)c1ccc2c(c1)OCO2`: the Ki is 0.27 nM.
